# Experimental data taken from ChEMBL document CHEMBL1955737, “Diarylpyrimidine-dihydrobenzyloxopyrimidine hybrids: new, wide-spectrum anti-HIV-1 agents active at (sub)-nanomolar level” (J Med Chem, 2011).
# System: Human immunodeficiency virus type 1 reverse transcriptase (Human immunodeficiency virus 1), Q72547 [L100I]
smiles,measurement,value
Cc1cc(C)c(Nc2ccnc(Nc3ccc(C#N)cc3)n2)c(C)c1 [DAPIVIRINE],ID50,90 nM
